Data set [1] concerns the target MBP-TALE AvrXa7 NT-G (synthetic, [XXX]=SRS). The data set is described as follows: p228, FIG 26.
For data set [2], the target named is MBP-TALE AvrXa7 NT-αN (synthetic, [XXX]=RGA). As to the kind of experiment: p228, FIG 26.

B1: Avr 5'G biotin hairpin (dsDNA)
DNA: ATCTTAGCACCTGGTTGGAGGGGGTTTATCGGGTTTTCCCGATAAACCCCCTCCAACCAGGTGCTAAGAT
As for B1, the binding result in data set [1] and in data set [2] was “binds” in each case.

B2: Avr 5'C biotin hairpin (dsDNA)
DNA: ATCTTAGCACCTGGTTGGAGGGGGTTTATGGGGTTTTCCCCATAAACCCCCTCCAACCAGGTGCTAAGAT
For B2, in data set [2], the binding result is “binds”.

B3: Avr 5'A biotin hairpin (dsDNA)
DNA: ATCTTAGCACCTGGTTGGAGGGGGTTTATTGGGTTTTCCCAATAAACCCCCTCCAACCAGGTGCTAAGAT
B3: in data set [2], the binding result was “binds”.
